# Assay results taken from the supplement of paper PMC10515830.
# Only a part is listed here, and it is no random draw.
# Columns and labels:
# Details in all cases: 10 µM; exposure time 6 h
# [1] = system: Danio rerio larvae (5 dpf); assay: difference in excitability vs DMSO (percentage points); higher = more excitable than DMSO
# Method in brief: (§1)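 Wild-type zebrafish larvae at 5 dpf were kept in 96-well plates and exposed for 6 h to 100 µL egg water holding library compound at a final concentration of 10 µM. From 3 h into exposure, the plates were held at 28.5 ℃ and photographed every 6 s through a 3-h programme of moving lines and 100 ms, 400Hz tones. Each behaviour was scored by Z-LaP Tracker, a DeepLabCut model, and averaged over 48 larvae per compound. Every value gives the compound mean minus the vehicle control mean, in percentage points.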
# [2] = system: Danio rerio larvae (5 dpf); assay: difference in startle response vs DMSO (percentage points); higher = stronger startle than DMSO
# Method in brief: as §1
# [3] = system: Danio rerio larvae (5 dpf); assay: difference in activity during first hour vs DMSO (percentage points); higher = more activity than DMSO
# Method in brief: as §1
# [4] = system: Danio rerio larvae (5 dpf); assay: difference in habituation to acoustic stimuli vs DMSO (percentage points); higher = more habituation than DMSO
# Method in brief: as §1
# [5] = system: Danio rerio larvae (5 dpf); assay: difference in combined optomotor response to red, green and blue moving lines vs DMSO (percentage points); higher = stronger optomotor response than DMSO
# Method in brief: as §1
structure (smiles),measurement,setting,value
CCOP(=O)(OCC)SCC[N+](C)(C)C [Echothiophate (iodide)],difference in excitability,[1],4.06
same,difference in startle response,[2],-2.32
same,difference in activity during first hour,[3],3.24
same,difference in habituation to acoustic stimuli,[4],0.454
same,difference,[5],0.422
